Measurements: article doi:10.1101/465575 (bioRxiv, 2018)

Columns and labels:
[1] = biological target: T1, Rv0081 (Mycobacterium tuberculosis) (UniProt P9WMI7); assay: EMSA; conditions: 6 mM Mg2+, poly-dIdC
T1 sequence (looked up, limits assumed): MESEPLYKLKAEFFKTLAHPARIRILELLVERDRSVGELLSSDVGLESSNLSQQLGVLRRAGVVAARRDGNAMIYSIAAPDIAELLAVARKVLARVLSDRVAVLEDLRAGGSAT

[2] = biological target: T1, Rv0081 (Mycobacterium tuberculosis); assay: competition with a labelled probe; conditions: 50x unlabelled vs ds-Wt-Biot

Sequence | binding result [1] | binding result [2]
ATCCGCACTATCTGATAAATTCTTCAACTCGTC (double strand) [ds-Wt] | binds | –
ATCCGCACTATCTGATAAATTCTTCAACTCGTC (double strand) [ds-Wt unlabelled competitor] | – | binds

Construct, isoform or probe ends are uncertain for at least one entry. Tags and fusion partners may be left off the protein sequences shown.
